The record followed here is US7405063B2, “Biooxidation capabilities of Candida sp” (Cognis Corporation, priority 2000, dated 2008).

Each structure is given as a SMILES string. The amount applied is not stated for every result.

The subject of the data set is C. tropicalis. Description: Bioconversion testing of additional substrates (Phase II), shake flask, NMR and GC/MS. It is filed as cell-based. Particulars: for Reaction or Major Reaction Product: Phase II screening summary.

With `CCCCCCCCCCCCC1CO1` (stereo not drawn) [1,2-Epoxytetradecane], the “Reaction or Major Reaction Product” value is “(ω,ω-1) Dihydroxy Fatty Acid”. The same measure, in the same setting: next, `CCCCCCCCCCCCCCC(O)CO` (stereo not drawn) [1,2-Hexadecanediol]: “(ω,ω-1) Dihydroxy Fatty Acid”. With `CCc1ccc(CC)cc1` [1,4-diethyl benzene, 1,4-diethylbenzene], the “biooxidation outcome / predominant product” value (NMR, GC/MS) was 4-ethylphenylacetic acid. With `C=CCCCCCCCCCCCCCC` [1-Hexadecene], the “Reaction or Major Reaction Product” value was “(ω,ω-1) Dihydroxy Fatty Acid”. Besides, the “vinyl unsaturation oxidized to diol, by NMR” value (24-30 hours biooxidation) worked out at 50%. Regarding `C=CCCCCCCCCCCCCCCCC` [1-Octadecene], the “Reaction or Major Reaction Product” value is on record as “(ω,ω-1) Dihydroxy Fatty Acid”.
